# Laboratory results: patent US20210261570A1, “ANTIBIOTIC RESISTANCE BREAKERS” (KING'S COLLEGE LONDON, priority 2017, published 2021)
# Test system: S. aureus SA 282
# Assay: MIC, MDR strains with target mutations
# Format: cell-based
# Design: unit not given beside the values
smiles,measurement,value
"C[C@H]1COc2c(N3CCN(C)CC3)c(F)cc3c(=O)c(C(=O)O)cn1c23 [Levofloxacin, levofloxacin]",MIC,16
